{"source": "PubChem BioAssay AID1259421", "about": "(Broad Institute, 2018)", "note": "This is a selection; strong and weak results do not stand in their true shares. Some structures show a salt or complex split into parts, the way the source records it. Calls of active or inactive are those of the source. No stated cut-off is given here; in the data, active means activity change below about -70%; inconclusive means no clear call, values can overlap the other calls; inactive means above that.", "data": [{"experiment": "T. gondii ME49Luc in HeLa cells, luciferase assay, 72 h, no IFN-y (AID 1259421)", "settings": "stronger effect = lower value, concentration not given here", "values": [{"smiles": "CN(C)CCS", "activity change, negative = inhibition": "inactive: 13.8%"}, {"smiles": "C/C1=C2N=C(/C=C3N=C(/C(C)=C4\\[N-][C@@](C)([C@@H]5N=C1[C@](C)(CCC(=O)NC[C@@H](C)OP(=O)(O)O[C@H]1[C@@H](O)[C@@H](n6cnc7cc(C)c(C)cc76)O[C@@H]1CO)[C@H]5CC(N)=O)[C@@](C)(CC(N)=O)[C@@H]4CCC(N)=O)[C@@](C)(CC(N)=O)[C@@H]\\3CCC(N)=O)C(C)(C)[C@@H]/2CCC(N)=O.[C-]#N.[Co+2]", "activity change, negative = inhibition": "inactive: -4.57%"}, {"smiles": "C/C1=C2N=C(/C=C3N=C(/C(C)=C4\\[N-][C@@](C)([C@@H]5N=C1[C@](C)(CCC(=O)NC[C@@H](C)OP(=O)(O)O[C@H]1[C@@H](O)[C@@H](n6cnc7cc(C)c(C)cc76)O[C@@H]1CO)[C@H]5CC(N)=O)[C@@](C)(CC(N)=O)[C@@H]4CCC(N)=O)[C@@](C)(CC(N)=O)[C@@H]\\3CCC(N)=O)C(C)(C)[C@@H]/2CCC(N)=O.[C-]#N.[Co+3]", "activity change, negative = inhibition": "inactive: 0.206%"}]}]}
